For at least one entry, the source does not settle the construct or the ends of the probe.
Target: T1, LsrR (Escherichia coli DCM5 (mammary pathogenic)) (UniProt Q8XAY6)
T1 sequence: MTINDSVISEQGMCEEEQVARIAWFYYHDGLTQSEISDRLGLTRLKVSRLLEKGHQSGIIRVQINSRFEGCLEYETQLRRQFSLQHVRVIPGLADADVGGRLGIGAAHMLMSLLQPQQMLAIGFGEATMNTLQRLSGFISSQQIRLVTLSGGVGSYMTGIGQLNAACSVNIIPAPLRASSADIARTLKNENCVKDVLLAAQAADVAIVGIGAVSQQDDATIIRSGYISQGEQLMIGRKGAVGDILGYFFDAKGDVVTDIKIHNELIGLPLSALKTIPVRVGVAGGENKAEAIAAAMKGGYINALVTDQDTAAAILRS
Assay: EMSA
Settings: positive control, 100 fmol probe, 5x binding buffer (4 µL) […], recombinant protein, residues 1-317, protein details: C-terminal His6 (pET28a), label: biotin (forward primer 5' end implied), probe letters rebuilt from the primers and the genome

Q: Does “ATTTCCCCCGTTCAGTTTTGCAGGTGAGTTTTGAACAAATGTATTTCTGCTTTTAATTTGTTCATAACCTTAGGTGGACATTGCACATATTTCCGACGAATAGATCACAATTTATGCTATTTTGATTTTCACGGTTGCGTTTGTTCATACTCGTAGAGTCAAACTGTGGTTGCCATCACAGATATAAATGCGCAAGAACTGAACAATTGCATTAAAGATTTAAATATGTTCAAAGTGAAGAATGAATT (double strand) [p-lsrR]” bind?
A: binds

Reference: PMC8487509
